Experimental data: PubChem BioAssay AID624099 (ICCB-Longwood, 2012)

- Purpose: 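Knock-downs relieving repression by E2 of an HPV18 LCR luciferase reporter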 (primary screen)
- System: human C33A cervical carcinoma cells (HPV-negative) stably expressing BPV1 E2 and an HPV18 LCR luciferase reporter
- Reagents: siRNA pool against human genes, 40 nM
- Timing: 72 h
- Measurement: 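Per-well luciferase luminescence, z-scored on each plate against the plate mean and SD with control wells left out, then averaged across three replicate plates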
- Direction: mean z-score and z-score: higher = stronger reporter signal, weaker E2 silencing
- Call rule: 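Hit if mean z-score reaches 2 and two or more of three replicate z-scores also reach 2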
Here is an unselected part of about 21,000 reagents tested. Of all reagents, 497 (2.4%) were called active. 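Higher z means weaker E2 silencing; only reporter increases were scored, and knock-downs that hurt cell survival may mask genuine repressor factors.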 A number with no mark means an inactive call. The numbers tell different reagents against one gene apart.

For ZNF391, the values are mean z-score 0.55; z-score, replicate A = 0.75; z-score, replicate B = 0.21; z-score, replicate C = 0.71. After knock-down of PALLD, the record shows mean z-score -0.68; z-score, replicate A = -0.47; z-score, replicate B = -0.82; z-score, replicate C = -0.74. Depletion of LOC401216 (retired record) gave: mean z-score -0.6; z-score, replicate A = -0.62; z-score, replicate B = -0.6; z-score, replicate C = -0.57. GLIS2 showed mean z-score -0.85; z-score, replicate A = -0.83; z-score, replicate B = -0.93; z-score, replicate C = -0.8. After knock-down of OR1C1 the results were mean z-score 0.29; z-score, replicate A = 0.55; z-score, replicate B = -0.22; z-score, replicate C = 0.55. After knock-down of TRIM3, the screen gave mean z-score -0.7; z-score, replicate A = -0.67; z-score, replicate B = -0.77; z-score, replicate C = -0.67.

For MRPS30 the deposit lists mean z-score -0.64; z-score, replicate A = -0.89; z-score, replicate B = -0.53; z-score, replicate C = -0.48.

A portion from the list above, as a working copy:
PALLD — mean z-score = -0.68; z-score, replicate A = -0.47; z-score, replicate B = -0.82; z-score, replicate C = -0.74
LOC401216 (retired record) — mean z-score = -0.6; z-score, replicate A = -0.62; z-score, replicate B = -0.6; z-score, replicate C = -0.57
GLIS2 — mean z-score = -0.85; z-score, replicate A = -0.83; z-score, replicate B = -0.93; z-score, replicate C = -0.8
OR1C1 — mean z-score = 0.29; z-score, replicate A = 0.55; z-score, replicate B = -0.22; z-score, replicate C = 0.55

The list goes on:
GAS2L3 scored mean z-score 0.18; z-score, replicate A = 0.26; z-score, replicate B = 0.34; z-score, replicate C = -0.07. For TCEA3, the values are mean z-score -1.02; z-score, replicate A = -0.91; z-score, replicate B = -1.04; z-score, replicate C = -1.11. Against LOC100289495, the values are mean z-score 0.57; z-score, replicate A = 0.78; z-score, replicate B = 0.4; z-score, replicate C = 0.52. NIPSNAP2 scored mean z-score 0.53; z-score, replicate A = 0.44; z-score, replicate B = 0.47; z-score, replicate C = 0.68. Silencing of BLTP3B gave: mean z-score 3.76 (active); z-score, replicate A = 3.97; z-score, replicate B = 3.07; z-score, replicate C = 4.23. Silencing of NCF2 gave: mean z-score -1; z-score, replicate A = -0.83; z-score, replicate B = -1.15; z-score, replicate C = -1.01.

FERD3L scored mean z-score 0.38; z-score, replicate A = 0.75; z-score, replicate B = 0; z-score, replicate C = 0.23. After knock-down of MLLT10 the results were mean z-score 1.52; z-score, replicate A = 1.42; z-score, replicate B = 1.81; z-score, replicate C = 1.32. Depletion of PSMB7 resulted in: mean z-score -0.62; z-score, replicate A = -0.62; z-score, replicate B = -0.75; z-score, replicate C = -0.48. After knock-down of MFRP the results were mean z-score 0.42; z-score, replicate A = 0.56; z-score, replicate B = 0.2; z-score, replicate C = 0.51. TSPO2 gave mean z-score -0.09; z-score, replicate A = -0.17; z-score, replicate B = -0.01; z-score, replicate C = -0.45. TDRD12 gave mean z-score -1.45; z-score, replicate A = -1.31; z-score, replicate B = -1.26; z-score, replicate C = -1.79.

ZMYM6 #1 scored mean z-score 0.12; z-score, replicate A = 0.27; z-score, replicate B = 0.11; z-score, replicate C = -0.02. For ZMYM6 #2, the entry reads mean z-score -2.36; z-score, replicate A = -2.63; z-score, replicate B = -2.48; z-score, replicate C = -1.97.
